Data as given in patent publication US11331370B2, “Combination product for the prevention of sexually transmitted infections” (priority 2014, dated 2022).

System: HIV-192BR014
Assay: Anti-HIV combination activity in activated PBMCs, p24 ELISA, Chou-Talalay
Type: cell-based
Conditions: PBMC, HIV-1 92BR014

| Compound | m, slope of the median-effect plot |
| --- | --- |
| CC(=O)[O-].CC(=O)[O-].[Zn+2] [ZA, zinc acetate] | 2.655 |
| Griffithsin [GRFT] | 2.784 |
